PubChem BioAssay AID624099 – ICCB-Longwood, 2012
The deposit covers about 21,000 reagents; this is a part drawn at random. In the full data, 497 (2.4%) got an active call. 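Higher z means weaker E2 silencing; only reporter increases were scored, and knock-downs that hurt cell survival may mask genuine repressor factors.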 Entries without a mark were called inactive. Reagents against one gene are numbered here.

- Screen: 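Human genes that papillomavirus E2 requires to repress the HPV18 LCR promoter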 (primary screen)
- Cells: human C33A cervical carcinoma cells (HPV-negative) stably expressing BPV1 E2 and an HPV18 LCR luciferase reporter
- Reagents: siRNA pool against human genes, 40 nM
- Duration: 72 h
- Detection: 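Per-well luciferase luminescence, z-scored on each plate against the plate mean and SD with control wells left out, then averaged across three replicate plates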
- Direction: mean z-score and z-score: higher = stronger reporter signal, weaker E2 silencing
- Rule for the call: 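Hit if mean z-score reaches 2 and two or more of three replicate z-scores also reach 2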

For NOP58 (GeneID 51602), what does the deposit list?
mean z-score: -0.7; z-score, replicate A: -0.76; z-score, replicate B: -0.7; z-score, replicate C: -0.65

What did the screen give for LOC387649 (retired record) (GeneID 387649)?
mean z-score: -0.39; z-score, replicate A: -0.72; z-score, replicate B: -0.38; z-score, replicate C: -0.07

With ZNF831 (GeneID 128611), what does the deposit list?
mean z-score: -0.11; z-score, replicate A: -0.05; z-score, replicate B: -0.17; z-score, replicate C: -0.11

With ZFYVE19 (GeneID 84936), what does the deposit list?
mean z-score: -0.91; z-score, replicate A: -0.95; z-score, replicate B: -0.87; z-score, replicate C: -0.92

How did the screen score LOC402626 (retired record) (GeneID 402626)?
mean z-score: -0.28; z-score, replicate A: -0.23; z-score, replicate B: -0.26; z-score, replicate C: -0.34

With LOC388338 (retired record) (GeneID 388338), what does the deposit list?
mean z-score: 0.05; z-score, replicate A: -0.14; z-score, replicate B: 0.38; z-score, replicate C: -0.1

For C9orf57 (GeneID 138240), what was measured?
mean z-score: 0.84; z-score, replicate A: 0.53; z-score, replicate B: 0.53; z-score, replicate C: 1.46

What did the screen give for NCAPD3 (GeneID 23310)?
mean z-score: -0.24; z-score, replicate A: -0.81; z-score, replicate B: -0.13; z-score, replicate C: 0.22

Already shown: an excerpt of the list.
NOP58 (GeneID 51602) → mean z-score: -0.7; z-score, replicate A: -0.76; z-score, replicate B: -0.7; z-score, replicate C: -0.65
LOC387649 (retired record) (GeneID 387649) → mean z-score: -0.39; z-score, replicate A: -0.72; z-score, replicate B: -0.38; z-score, replicate C: -0.07

Continued.
With CFAP74 (GeneID 85452) #1, how do the results read?
mean z-score: -0.18; z-score, replicate A: 0.06; z-score, replicate B: -0.3; z-score, replicate C: -0.29

For CFAP74 (GeneID 85452) #2, what was measured?
mean z-score: -0.17; z-score, replicate A: 0.08; z-score, replicate B: -0.44; z-score, replicate C: -0.14

For PRSS27 (GeneID 83886), what was measured?
mean z-score: -0.01; z-score, replicate A: -0.05; z-score, replicate B: -0.23; z-score, replicate C: 0.25

How did the screen score OR7E35P (GeneID 391632)?
mean z-score: 1; z-score, replicate A: 0.95; z-score, replicate B: 1.3; z-score, replicate C: 0.75

With CFAP90 (GeneID 134121), what was measured?
mean z-score: 0.49; z-score, replicate A: 0.8; z-score, replicate B: 0.43; z-score, replicate C: 0.24

What did the screen give for CYP21A2 (GeneID 1589)?
mean z-score: 0.39; z-score, replicate A: 0.29; z-score, replicate B: 0.28; z-score, replicate C: 0.61

For OR5M11 (GeneID 219487), what does the deposit list?
mean z-score: 0.71; z-score, replicate A: 0.22; z-score, replicate B: 1.06; z-score, replicate C: 0.86

Which result is listed for UTP3 (GeneID 57050)?
mean z-score: 1.65; z-score, replicate A: 1.7; z-score, replicate B: 1.52; z-score, replicate C: 1.72

Which result is listed for CLDN3 (GeneID 1365)?
mean z-score: -0.26; z-score, replicate A: 0.03; z-score, replicate B: -0.11; z-score, replicate C: -0.71

What did the screen give for RIN1 (GeneID 9610)?
mean z-score: -0.74; z-score, replicate A: -0.51; z-score, replicate B: -0.92; z-score, replicate C: -0.79

What did the screen give for ABHD11 (GeneID 83451)?
mean z-score: -0.6; z-score, replicate A: -0.32; z-score, replicate B: -0.62; z-score, replicate C: -0.87

With SEL1L3 (GeneID 23231), what does the deposit list?
mean z-score: 0.01; z-score, replicate A: 0.14; z-score, replicate B: 0.23; z-score, replicate C: -0.33

With ZSCAN16 (GeneID 80345), what was measured?
mean z-score: -0.73; z-score, replicate A: -0.87; z-score, replicate B: -0.54; z-score, replicate C: -0.76
